The experiment addresses PA-PB1 dimer: PA-Luc1 co-expressed with untagged PB1 (influenza A virus, strain not stated), P15659. Description: split reporter (BiFC, NanoBiT). The conditions noted are these: remark: other sources report otherwise.

B1: PB2 subunit of FluPol fused to Luc2, P03427 1-759 (natural protein)
chain: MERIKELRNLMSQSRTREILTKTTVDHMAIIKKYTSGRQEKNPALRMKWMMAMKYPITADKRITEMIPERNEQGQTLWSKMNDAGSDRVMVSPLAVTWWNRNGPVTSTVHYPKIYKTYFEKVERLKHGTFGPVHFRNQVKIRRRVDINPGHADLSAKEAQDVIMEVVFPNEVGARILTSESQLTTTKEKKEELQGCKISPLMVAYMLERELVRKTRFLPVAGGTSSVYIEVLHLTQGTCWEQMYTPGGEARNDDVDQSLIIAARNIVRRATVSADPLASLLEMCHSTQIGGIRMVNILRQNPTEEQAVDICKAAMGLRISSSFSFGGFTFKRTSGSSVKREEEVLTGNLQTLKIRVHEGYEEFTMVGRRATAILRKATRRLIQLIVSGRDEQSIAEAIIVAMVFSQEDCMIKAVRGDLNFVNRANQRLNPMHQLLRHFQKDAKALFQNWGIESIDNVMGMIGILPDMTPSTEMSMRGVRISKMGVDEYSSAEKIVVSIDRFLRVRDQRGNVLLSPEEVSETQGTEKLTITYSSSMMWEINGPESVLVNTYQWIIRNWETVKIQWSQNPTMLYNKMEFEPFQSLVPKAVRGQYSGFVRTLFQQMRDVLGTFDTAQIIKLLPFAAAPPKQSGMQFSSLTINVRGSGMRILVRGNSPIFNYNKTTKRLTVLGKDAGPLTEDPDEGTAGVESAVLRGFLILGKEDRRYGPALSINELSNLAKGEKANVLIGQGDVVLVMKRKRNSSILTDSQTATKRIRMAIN
As to B1, the NLR was 100.
